Measured values from several laboratories, pooled; numbers as filed in NIAID ChemDB.

Common to all: whole-cell or culture tests; species: Cryptococcus neoformans; measure: MIC

Neighbouring rows are from separate reports.

{"SMILES": "COc1ccc(/C=C2\\COc3ccc(SC)cc3C2=O)cc1", "strain or isolate": "25", "value": "25 µg/mL"}
{"SMILES": "Clc1ccc(C(CCc2ccccc2)Cn2ccnc2)c(Cl)c1", "value": "<1 µg/mL"}
{"SMILES": "Oc1ccc(O)c(C=Nc2ccccc2O)c1", "strain or isolate": "28JF", "method": "broth dilution", "value": "11.3 µg/mL"}
{"SMILES": "COc1ccc(N2CCN(CCc3nnn(CC(O)(Cn4cncn4)c4ccc(F)cc4F)n3)CC2)cc1", "strain or isolate": "LA314", "value": ">16 µg/mL"}
{"SMILES": "CCC(C)n1ncn(-c2ccc(N3CCN(c4ccc(OC[C@H]5CO[C@](Cn6cncn6)(c6ccc(Cl)cc6Cl)O5)cc4)CC3)cc2)c1=O", "strain or isolate": "Clinical isolate (IM 000319)", "method": "broth dilution", "value": "<0.015 µg/mL"}
{"SMILES": "CCC(C)CC(C)CCCCCCCCC(=O)N[C@H]1C[C@@H](O)[C@H](NCCN)NC(=O)[C@@H]2[C@@H](O)CCN2C(=O)[C@H]([C@H](O)CCN)NC(=O)[C@H]([C@H](O)[C@@H](O)c2ccc(O)cc2)NC(=O)[C@@H]2C[C@@H](O)CN2C(=O)[C@H]([C@@H](C)O)NC1=O", "strain or isolate": "B 29739", "method": "broth dilution", "value": "32 µg/mL"}
{"SMILES": "OC(Cn1cncn1)(Cn1nnc(CCN2CCN(C(c3ccccc3)c3ccccc3)CC2)n1)c1ccc(F)cc1F", "strain or isolate": "LA314", "value": ">16 µg/mL"}
{"SMILES": "Oc1ccccc1N=Cc1ccc2c(c1)OCO2", "strain or isolate": "WP", "method": "broth dilution", "value": "5.7 µg/mL"}
{"SMILES": "COc1ccc2c(c1)C(=O)/C(=C/c1ccc3ccccc3c1)CO2", "strain or isolate": "Farwania", "value": "12.5 µg/mL"}
{"SMILES": "COc1cc(NS(=O)(=O)c2ccc(N)cc2)ncn1", "strain or isolate": "IFM 49624", "value": "≥256 µg/mL"}
{"SMILES": "CCC(C)n1ncn(-c2ccc(N3CCN(c4ccc(OC[C@H]5CO[C@](Cn6cncn6)(c6ccc(Cl)cc6Cl)O5)cc4)CC3)cc2)c1=O", "strain or isolate": "A25838", "value": "0.06 µg/mL"}
{"SMILES": "Oc1ccccc1N=Cc1ccc(F)cc1", "strain or isolate": "ATCC 62066", "method": "broth dilution", "value": "1.4 µg/mL"}
{"SMILES": "Clc1ccc(C(CCc2ccc(Br)cc2)Cn2ccnc2)c(Cl)c1", "value": "<1 µg/mL"}
{"SMILES": "OC(Cn1cncn1)(Cn1nnc(CCN2CCN(c3cccc(C(F)(F)F)c3)CC2)n1)c1ccc(F)cc1F", "strain or isolate": "LA314", "value": ">16 µg/mL"}
{"SMILES": "Cc1ccccc1C(Cc1c(Cl)cccc1Cl)Cn1ccnc1", "value": "100 µg/mL"}
{"SMILES": "CC[C@@H]([C@H](C)O)n1ncn(-c2ccc(N3CCN(c4ccc(OC[C@@H]5CO[C@@](Cn6cncn6)(c6ccc(F)cc6F)C5)cc4)CC3)cc2)c1=O", "strain or isolate": "DUMC136.89", "value": "0.125 µg/mL"}
{"SMILES": "C=CC[C@@H]1/C=C(/C)C[C@H](C)C[C@H](OC)[C@H]2O[C@@](O)(C(=O)C(=O)N3CCCC[C@H]3C(=O)O[C@H](/C(C)=C/[C@@H]3CC[C@@H](O)[C@H](OC)C3)[C@H](C)[C@@H](O)CC1=O)[C@H](C)C[C@@H]2OC", "strain or isolate": "C21F2", "value": "50 µg/mL"}
{"SMILES": "Clc1ccc(CC(Cn2ccnc2)c2ccccc2Cl)c(Cl)c1", "value": "<1 µg/mL"}
{"SMILES": "C[C@@H](c1ncncc1F)[C@](O)(Cn1cncn1)c1ccc(F)cc1F", "strain or isolate": "ATCC 32264", "method": "broth dilution", "value": "<0.015 µg/mL"}
{"SMILES": "Oc1ccccc1N=Cc1cccc(O)c1O", "strain or isolate": "27JF", "method": "broth dilution", "value": "5.7 µg/mL"}
{"SMILES": "Nc1ccc(S(=O)(=O)Nc2ccnn2-c2ccccc2)cc1", "strain or isolate": "IFM 40216", "value": "≤4 µg/mL"}
{"SMILES": "Cc1ccc(/C=C2\\CCc3ccccc3C2=O)cc1", "strain or isolate": "93/V", "value": "25 µg/mL"}
{"SMILES": "C[C@@H]([C@@](O)(Cn1cncn1)c1ccc(F)cc1F)S(C)(=O)=O", "strain or isolate": "R718 (AZOLE-R)", "value": ">1000 µM"}
{"SMILES": "Cc1cc(NS(=O)(=O)c2ccc(N)cc2)no1", "strain or isolate": "IFM 40216", "value": "32 µg/mL"}
{"SMILES": "Cc1ccc(/C=C2\\CSc3ccccc3C2=O)cc1", "strain or isolate": "Farwania", "value": "100 µg/mL"}
{"SMILES": "C[C@@H](n1cnc2cc(Cl)ccc2c1=O)[C@](O)(Cn1cncn1)c1ccc(F)cc1F", "strain or isolate": "Isolate 133.95", "value": "0.078 µg/mL"}
{"SMILES": "Cc1nnc(NS(=O)(=O)c2ccc(N)cc2)s1", "strain or isolate": "IFM 49722", "value": "≥256 µg/mL"}
{"SMILES": "OC(Cn1cncn1)(Cn1nnc(CCN2CCN(c3ccccc3)CC2)n1)c1ccc(F)cc1F", "strain or isolate": "LA314", "value": ">16 µg/mL"}
{"SMILES": "C[C@@H](n1ncn(-c2ccc(OCC(F)(F)C(F)F)cc2)c1=O)[C@](O)(Cn1cncn1)c1ccc(F)cc1F", "strain or isolate": "DUMC 124.96", "value": "0.0625 µg/mL"}
{"SMILES": "Oc1ccccc1C=Nc1ccccc1O", "strain or isolate": "96806", "method": "broth dilution", "value": "8 µg/mL"}
{"SMILES": "O[C@](Cn1cncn1)(Cn1cnc(/C=C/c2ccc(OCC(F)(F)C(F)F)cc2)n1)c1ccc(F)cc1F", "strain or isolate": "TIMM0362", "value": "0.78 µg/mL"}
{"SMILES": "Oc1cccc(C=Nc2ccccc2O)c1", "strain or isolate": "GM", "method": "broth dilution", "value": "3.6 µg/mL"}
{"SMILES": "CCCCCOc1ccc(-c2cc(-c3ccc(C(=O)N[C@H]4C[C@@H](O)[C@@H](O)NC(=O)[C@@H]5[C@@H](O)[C@@H](C)CN5C(=O)[C@H]([C@H](O)CC(N)=O)NC(=O)[C@H]([C@H](O)[C@@H](O)c5ccc(O)c(OS(=O)(=O)O)c5)NC(=O)[C@@H]5C[C@@H](O)CN5C(=O)[C@H]([C@@H](C)O)NC4=O)cc3)no2)cc1", "strain or isolate": "FMR 8408", "value": "64 µg/mL"}

A second listing of 4 rows from above:

Oc1ccccc1N=Cc1ccc(F)cc1 ; strain or isolate: ATCC 62066 ; method: broth dilution ; value: 1.4 µg/mL
Oc1ccccc1C=Nc1ccccc1O ; strain or isolate: 96806 ; method: broth dilution ; value: 8 µg/mL
C[C@@H](n1ncn(-c2ccc(OCC(F)(F)C(F)F)cc2)c1=O)[C@](O)(Cn1cncn1)c1ccc(F)cc1F ; strain or isolate: DUMC 124.96 ; value: 0.0625 µg/mL
COc1cc(NS(=O)(=O)c2ccc(N)cc2)ncn1 ; strain or isolate: IFM 49624 ; value: ≥256 µg/mL